“And” between values parts separate entries of the source, which are not always exact repeats. Equal values may be shown once.

The target of one experiment is T1, C-reactive protein (UniProt P02741 19-224).
T1 sequence: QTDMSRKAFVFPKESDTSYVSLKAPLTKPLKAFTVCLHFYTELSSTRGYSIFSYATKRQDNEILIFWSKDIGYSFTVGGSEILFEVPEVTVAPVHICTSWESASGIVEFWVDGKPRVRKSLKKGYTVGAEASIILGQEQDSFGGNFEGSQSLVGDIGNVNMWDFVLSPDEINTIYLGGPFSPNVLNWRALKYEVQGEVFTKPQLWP

In the next experiment the target is Streptavidin (UniProt P22629 37-163).
The next experiment deals with Bovine Thrombin (bovine, UniProt P00735 318-625).

B1:  (other)
chain 1: MHHHHHHENLYFQSSGGIFTKEDLINLKLYVRKGLSLPTRQDEVEAYLGYKKIDVAGLEPKDIKLLFDEIHNHALNWNDVEQAVLQQSLDLDIAAKNIISTGNEIINLINQMPITLRVKTLLGDITDKQLENITYESADHEVASALKDILDDMKGDINRHQTTTENVRKKVSDYRITLTGGELSSGDKVNGLEPQVKTKYDLMEKSNMRKSIKELDEKIKEKRQRIEQLKKDYDKFVGLSFTGAIGGIIAMAITGGIFGAKAENARKEKNALISEVAELESKVSSQRALQTALEALSLSFSDIGIRMVDAESALNHLDFMWLSVLNQITESQIQFAMINNALRLTSFVNKFQQVITPWQSVGDSARQLVDIFDEAIKEYKKVYG
chain 2: MSYYHHHHHHDYDIPTTENLYFQGAEISTFPHSGLSYPDINFKIFSQGVKNISHLAQFKTTGVEVLQEKALRVSLYSQRLDVIVRESLSSLQVKLENTLALTYFTTLEEIDEALISQDIDEESKSEMRKERINIIKNLSNDITQLKQLFIEKTELLDKSSSDLHNVVIIEGTDKVLQAEQLRQKQLTEDIATKELERKEIEKKRDKIIEALDVIREHNLVDAFKDLIPTGENLSELDLAKPEIELLKQSLEITKKLLGQFSEGLKYIDLTDARKKLDNQIDTASTRLTELNRQLEQSEKLIAGVNAIIKIDQEKSAVVVEAEKLSRAWHIFIHEITALQGTSLNEVELSKPLIKQQIYLESLIKQLI
As for B1, the koff with C-reactive protein is 27 s⁻¹ and 36.8 s⁻¹; with Streptavidin, 13.3 s⁻¹; with Bovine Thrombin, 121 s⁻¹. The kon with C-reactive protein stood at 3.09e+08 M⁻¹ s⁻¹; in the experiment with Streptavidin it was 4.73e+08 M⁻¹ s⁻¹; with Bovine Thrombin, 1.51e+08 M⁻¹ s⁻¹.

What is called koff is the rate constant with which the complex falls apart. A word on the kon: it is a measure of how fast the partners come together. Read a high kon as faster complex formation.
